Anti-infective test results gathered from many reports (values: NIAID ChemDB through PubChem).

All rows: tests in culture; agent: Aspergillus clavatus

Conditions beyond the fields shown may differ between rows. An empty or dashed field is not shown. MIC50, MIC90 and the like: level of inhibition, or share of isolates inhibited.

SMILES,strain,measure,method,result
Clc1ccc(C(c2ccccc2)N2CCN(c3nc(NCCNc4ncnc5c(Br)cc(Br)cc45)nc(NC4CC4)n3)CC2)cc1,MTCC 1323,MIC,agar,25 µg/mL
N#CSc1ccc2nc(NC(=O)CN3C(=O)S/C(=C/c4cccc(Br)c4)C3=O)sc2c1,MTCC 1323,MIC,broth dilution / visual reading,>1000 µg/mL
Clc1nc(NC2CC2)nc(N2CCN(c3ncccn3)CC2)n1,MTCC 1323,MIC,agar,25 µg/mL
O=C(NN1C(=O)/C(=C/c2cc3ccccc3nc2Cl)N=C1c1ccccc1)c1cccc(Cl)c1,MTCC 1323,MIC,broth dilution,100 µg/mL
Cc1nn(-c2ccccc2)c2c1C(c1cccc([N+](=O)[O-])c1)c1c(nc(=O)[nH]c1N)O2,MTCC 1323,MIC,-,500 µg/mL
Cc1ccc(-c2nc3ccccc3c(=O)n2-c2ccc(C(=O)N/N=C\c3ccc(F)cc3)cc2)cc1,MTCC 1323,MIC100,-,250 µg/mL
Cc1ccc(NC(=S)Nc2nc(N3CCN(c4ccccc4)CC3)c3ccccc3n2)cc1,MTCC 1323,MIC,agar / visual reading,100 µg/mL
Cc1ccc(-c2nc3ccccc3c(=O)n2-c2ccc(CONN)cc2)cc1,MTCC 1323,MIC100,-,1000 µg/mL
Cc1cc(Cl)[nH]c2ccc3c(=O)c(C(=O)NN4C(=O)C(Cl)C4c4cccc([N+](=O)[O-])c4O)cnc3c12,-,MIC,broth dilution,>1000 µg/mL
CCN1CCN(c2nc(NN=C3SCC(=O)N3c3ccccc3C)nc3ccccc23)CC1,MTCC 1323,MIC,agar / visual reading,12.5 µg/mL
N#Cc1c(-c2ccc(O)cc2)cc(-c2cc3cc(F)ccc3oc2=O)nc1NS(=O)(=O)c1ccccc1,MTCC 1323,MIC,turbidity,500 µg/mL
O=C(CSc1nnc(-c2ccc3ncccc3c2)o1)Nc1ccc(F)cc1,-,MIC,agar,50 µg/mL
Brc1cc(Br)c2ncnc(NCCNc3nc(NC4CC4)nc(N4CCN(c5ccccn5)CC4)n3)c2c1,MTCC 1323,MIC,agar,100 µg/mL
N#Cc1c(-c2cccc([N+](=O)[O-])c2)cc(-c2cc3cc(F)ccc3oc2=O)nc1NS(=O)(=O)c1ccccc1,MTCC 1323,MIC,turbidity,>1000 µg/mL
Cc1nn(-c2ccccc2)c2c1C(c1ccccc1Cl)c1c(nc(=S)[nH]c1N)O2,MTCC 1323,MIC,-,>1000 µg/mL
COc1ccccc1/C=C1\SC(c2ccc(F)cc2)N(NC(=O)c2ccc(-n3c(-c4ccc(C)cc4)nc4ccccc4c3=O)cc2)C1=O,MTCC 1323,MIC100,-,1000 µg/mL
O=C1CSC(N2N=C(c3ccc(Cl)cc3)CC2c2cc3ccccc3nc2Cl)=N1,MTCC 1323,MIC100,-,50 µg/mL
N#Cc1ccc2nc(NC(=O)CSc3nnc(-c4ccc5ncccc5c4)o3)sc2c1,-,MIC,agar,50 µg/mL
N#Cc1c(-c2cccc(Cl)c2)cc(-c2cc3cc(F)ccc3oc2=O)nc1NS(=O)(=O)c1ccccc1,MTCC 1323,MIC,turbidity,>1000 µg/mL
Cc1nn(-c2ccccc2)c2c1C(c1ccc(F)cc1)c1c(nc(=S)[nH]c1N)O2,MTCC 1323,MIC,-,1000 µg/mL
Cc1ccc(-c2nc3ccccc3c(=O)n2-c2ccc(C(=O)NN3C(=O)/C(=C/c4cccc(Cl)c4)SC3c3ccc(F)cc3)cc2)cc1,MTCC 1323,MIC100,-,1000 µg/mL
Cc1nn(-c2ccccc2)c2c1C(c1ccc(F)cc1)C(C#N)=C(N)O2,MTCC 1323,MIC,-,500 µg/mL
Cc1ccc2nc(Cl)c(C3SC(=Cc4ccc(Cl)cc4)C(=O)N3n3c(-c4ccc(Cl)cc4)nc4ccccc4c3=O)cc2c1,-,MIC99,broth dilution / visual reading,500 µg/mL
Cc1ccc(-c2nc3ccccc3c(=O)n2-c2ccc(C(=O)NN3C(=O)/C(=C/c4ccc(Cl)cc4)SC3c3ccc(F)cc3)cc2)cc1,MTCC 1323,MIC100,-,1000 µg/mL
Cc1ccc2nc(Cl)c(C3SC(=Cc4ccc([N+](=O)[O-])cc4)C(=O)N3n3c(-c4ccc(Cl)cc4)nc4ccccc4c3=O)cc2c1,-,MIC99,broth dilution / visual reading,500 µg/mL
O=C(CSc1nnc(-c2ccc3ncccc3c2)o1)Nc1nc2ccc(I)cc2s1,-,MIC,agar,100 µg/mL
Cc1ccc2nc(Cl)c(C3SC(=Cc4ccccc4[N+](=O)[O-])C(=O)N3n3c(-c4ccc(Cl)cc4)nc4ccccc4c3=O)cc2c1,-,MIC99,broth dilution / visual reading,500 µg/mL
CCCCCCN(CCCCCC)c1ccc(/C=C2/SC(=O)N(CC(=O)Nc3nc4ccc(SC#N)cc4s3)C2=O)cc1,MTCC 1323,MIC,broth dilution / visual reading,500 µg/mL
O=C(NN1C(=O)/C(=C/c2cc3ccccc3nc2Cl)N=C1c1ccccc1)c1ccc([N+](=O)[O-])cc1,MTCC 1323,MIC,broth dilution,200 µg/mL
Cc1ccc(-c2nc3ccccc3c(=O)n2-c2ccc(C(=O)NN3C(=O)/C(=C/c4ccccc4Br)SC3c3ccc(F)cc3)cc2)cc1,MTCC 1323,MIC100,-,25 µg/mL
N#Cc1c(-c2cccc(F)c2)cc(-c2cc3cc(F)ccc3oc2=O)nc1NS(=O)(=O)c1ccccc1,MTCC 1323,MIC,turbidity,500 µg/mL
CCN1CCN(c2nc(NN=C3SCC(=O)N3c3ccccc3F)nc3ccccc23)CC1,MTCC 1323,MIC,agar / visual reading,25 µg/mL
Cc1cc(Cl)[nH]c2ccc3c(=O)c(C(=O)NN=Cc4cc([N+](=O)[O-])ccc4O)cnc3c12,-,MIC,broth dilution,1000 µg/mL
Cc1ccc(C=C2SC(c3cc4cc(C)ccc4nc3Cl)N(n3c(-c4ccc(Cl)cc4)nc4ccccc4c3=O)C2=O)cc1,-,MIC99,broth dilution / visual reading,1000 µg/mL
N#Cc1c(-c2ccc(F)cc2)cc(-c2cc3cc(F)ccc3oc2=O)nc1NS(=O)(=O)c1ccccc1,MTCC 1323,MIC,turbidity,1000 µg/mL
Cc1cc(Cl)[nH]c2ccc3c(=O)c(C(=O)NN4C(=O)C(Cl)C4c4ccccc4)cnc3c12,-,MIC,broth dilution,>1000 µg/mL
COc1cc(/C=C2/SC(=O)NC2=O)ccc1O,MTCC 1323,MIC,broth dilution / visual reading,500 µg/mL
O=C1CSC(N2N=C(c3ccccc3[N+](=O)[O-])CC2c2cc3ccccc3nc2Cl)=N1,MTCC 1323,MIC100,-,100 µg/mL
Cc1nn(-c2ccccc2)c2c1C(c1ccccc1Cl)C(C#N)=C(N)O2,MTCC 1323,MIC,-,>1000 µg/mL
Cc1ccc2nc(Cl)c(C3SC(=Cc4cccc(Cl)c4)C(=O)N3n3c(-c4ccc(Cl)cc4)nc4ccccc4c3=O)cc2c1,-,MIC99,broth dilution / visual reading,1000 µg/mL
O=C1CSC(N2N=C(c3ccc(F)cc3)CC2c2cc3ccccc3nc2Cl)=N1,MTCC 1323,MIC100,-,500 µg/mL
CCOc1ccc(NC(=O)CSc2nnc(-c3ccc4ncccc4c3)o2)cc1,-,MIC,agar,100 µg/mL
O=C1CSC(N2N=C(c3ccccc3Cl)CC2c2cc3ccccc3nc2Cl)=N1,MTCC 1323,MIC100,-,100 µg/mL
Cc1nn(-c2ccccc2)c2c1C(c1cccc([N+](=O)[O-])c1)C(C#N)=C(N)O2,MTCC 1323,MIC,-,1000 µg/mL
O=C1NC(=O)/C(=C\c2ccc(F)cc2)S1,MTCC 1323,MIC,broth dilution / visual reading,500 µg/mL
Cc1nn(-c2ccccc2)c2c1C(c1cccc(Cl)c1)c1c(nc(=O)[nH]c1N)O2,MTCC 1323,MIC,-,1000 µg/mL
COc1ccccc1C=NNC(=O)c1cnc2c(ccc3[nH]c(Cl)cc(C)c32)c1=O,-,MIC,broth dilution,1000 µg/mL
Cc1ccc2nc(Cl)c(C3SC(=Cc4ccccc4Cl)C(=O)N3n3c(-c4ccc(Cl)cc4)nc4ccccc4c3=O)cc2c1,-,MIC99,broth dilution / visual reading,100 µg/mL
Cc1nn(-c2ccccc2)c2c1C(c1ccc(Cl)cc1)c1c(nc(=O)[nH]c1N)O2,MTCC 1323,MIC,-,>1000 µg/mL
O=C(NN1C(=O)/C(=C/c2cc3ccccc3nc2Cl)N=C1c1ccccc1)c1ccc(Cl)cc1,MTCC 1323,MIC,broth dilution,500 µg/mL
COc1ccc(N2CCN(c3nc(NCCNc4ncnc5c(Br)cc(Br)cc45)nc(NC4CC4)n3)CC2)cc1,MTCC 1323,MIC,agar,12.5 µg/mL
CCN1CCN(C(=S)Nc2nc(N3CCN(CC)CC3)c3ccccc3n2)CC1,MTCC 1323,MIC,agar / visual reading,200 µg/mL
O=C(CSc1nnc(-c2ccc3ncccc3c2)o1)Nc1ccc(I)cc1,-,MIC,agar,100 µg/mL
O=C(NN1C(=O)/C(=C/c2cc3ccccc3nc2Cl)N=C1c1ccccc1)c1ccc(Cl)cc1O,MTCC 1323,MIC,broth dilution,500 µg/mL
COc1ccc2nc(NC(=O)CSc3nnc(-c4ccc5ncccc5c4)o3)sc2c1,-,MIC,agar,100 µg/mL
Cc1cc(Cl)[nH]c2ccc3c(=O)c(C(=O)NN4C(=O)C(Cl)C4c4cc([N+](=O)[O-])ccc4O)cnc3c12,-,MIC,broth dilution,500 µg/mL
O=C1CSC(=O)N1,MTCC 1323,MIC,broth dilution / visual reading,>1000 µg/mL
CCN1CCN(c2nc(NC(=S)N3CCN(C)C(c4ccccc4)C3)nc3ccccc23)CC1,MTCC 1323,MIC,agar / visual reading,3.12 µg/mL

4 of the rows above, restated:

{"SMILES": "Cc1cc(Cl)[nH]c2ccc3c(=O)c(C(=O)NN4C(=O)C(Cl)C4c4cc([N+](=O)[O-])ccc4O)cnc3c12", "measure": "MIC", "method": "broth dilution", "result": "500 µg/mL"}
{"SMILES": "CCN1CCN(c2nc(NN=C3SCC(=O)N3c3ccccc3F)nc3ccccc23)CC1", "strain": "MTCC 1323", "measure": "MIC", "method": "agar / visual reading", "result": "25 µg/mL"}
{"SMILES": "COc1ccc2nc(NC(=O)CSc3nnc(-c4ccc5ncccc5c4)o3)sc2c1", "measure": "MIC", "method": "agar", "result": "100 µg/mL"}
{"SMILES": "CCOc1ccc(NC(=O)CSc2nnc(-c3ccc4ncccc4c3)o2)cc1", "measure": "MIC", "method": "agar", "result": "100 µg/mL"}